Assay [1] deals with DENV2proHeLa NS2B-NS3 protease (Dengue virus 2 Thailand/16681/84, UniProt P29990). As to the kind of experiment: DENV2proHeLa reporter gene assay. Format: cell-based. To be noted: HeLa cells, intracellular protease. On the technique in general: In a reporter assay the amount or activity of a reporter protein is the signal.
Assay [2] deals with NS2B(H)-NS3pro (DENV-2 NS2B-NS3 protease) (Dengue virus 2 Thailand/NGS-C/1944, UniProt P14340). As to the kind of experiment: fluorometric protease assay, AMC substrate. Format: biochemical. To be noted: pH 7.5, HEPES, CHAPS; substrate Bz-nKRR-AMC.

Chains of the proteins cited; added tags and fusions are not shown.
UniProt P29990, whole entry, looked up: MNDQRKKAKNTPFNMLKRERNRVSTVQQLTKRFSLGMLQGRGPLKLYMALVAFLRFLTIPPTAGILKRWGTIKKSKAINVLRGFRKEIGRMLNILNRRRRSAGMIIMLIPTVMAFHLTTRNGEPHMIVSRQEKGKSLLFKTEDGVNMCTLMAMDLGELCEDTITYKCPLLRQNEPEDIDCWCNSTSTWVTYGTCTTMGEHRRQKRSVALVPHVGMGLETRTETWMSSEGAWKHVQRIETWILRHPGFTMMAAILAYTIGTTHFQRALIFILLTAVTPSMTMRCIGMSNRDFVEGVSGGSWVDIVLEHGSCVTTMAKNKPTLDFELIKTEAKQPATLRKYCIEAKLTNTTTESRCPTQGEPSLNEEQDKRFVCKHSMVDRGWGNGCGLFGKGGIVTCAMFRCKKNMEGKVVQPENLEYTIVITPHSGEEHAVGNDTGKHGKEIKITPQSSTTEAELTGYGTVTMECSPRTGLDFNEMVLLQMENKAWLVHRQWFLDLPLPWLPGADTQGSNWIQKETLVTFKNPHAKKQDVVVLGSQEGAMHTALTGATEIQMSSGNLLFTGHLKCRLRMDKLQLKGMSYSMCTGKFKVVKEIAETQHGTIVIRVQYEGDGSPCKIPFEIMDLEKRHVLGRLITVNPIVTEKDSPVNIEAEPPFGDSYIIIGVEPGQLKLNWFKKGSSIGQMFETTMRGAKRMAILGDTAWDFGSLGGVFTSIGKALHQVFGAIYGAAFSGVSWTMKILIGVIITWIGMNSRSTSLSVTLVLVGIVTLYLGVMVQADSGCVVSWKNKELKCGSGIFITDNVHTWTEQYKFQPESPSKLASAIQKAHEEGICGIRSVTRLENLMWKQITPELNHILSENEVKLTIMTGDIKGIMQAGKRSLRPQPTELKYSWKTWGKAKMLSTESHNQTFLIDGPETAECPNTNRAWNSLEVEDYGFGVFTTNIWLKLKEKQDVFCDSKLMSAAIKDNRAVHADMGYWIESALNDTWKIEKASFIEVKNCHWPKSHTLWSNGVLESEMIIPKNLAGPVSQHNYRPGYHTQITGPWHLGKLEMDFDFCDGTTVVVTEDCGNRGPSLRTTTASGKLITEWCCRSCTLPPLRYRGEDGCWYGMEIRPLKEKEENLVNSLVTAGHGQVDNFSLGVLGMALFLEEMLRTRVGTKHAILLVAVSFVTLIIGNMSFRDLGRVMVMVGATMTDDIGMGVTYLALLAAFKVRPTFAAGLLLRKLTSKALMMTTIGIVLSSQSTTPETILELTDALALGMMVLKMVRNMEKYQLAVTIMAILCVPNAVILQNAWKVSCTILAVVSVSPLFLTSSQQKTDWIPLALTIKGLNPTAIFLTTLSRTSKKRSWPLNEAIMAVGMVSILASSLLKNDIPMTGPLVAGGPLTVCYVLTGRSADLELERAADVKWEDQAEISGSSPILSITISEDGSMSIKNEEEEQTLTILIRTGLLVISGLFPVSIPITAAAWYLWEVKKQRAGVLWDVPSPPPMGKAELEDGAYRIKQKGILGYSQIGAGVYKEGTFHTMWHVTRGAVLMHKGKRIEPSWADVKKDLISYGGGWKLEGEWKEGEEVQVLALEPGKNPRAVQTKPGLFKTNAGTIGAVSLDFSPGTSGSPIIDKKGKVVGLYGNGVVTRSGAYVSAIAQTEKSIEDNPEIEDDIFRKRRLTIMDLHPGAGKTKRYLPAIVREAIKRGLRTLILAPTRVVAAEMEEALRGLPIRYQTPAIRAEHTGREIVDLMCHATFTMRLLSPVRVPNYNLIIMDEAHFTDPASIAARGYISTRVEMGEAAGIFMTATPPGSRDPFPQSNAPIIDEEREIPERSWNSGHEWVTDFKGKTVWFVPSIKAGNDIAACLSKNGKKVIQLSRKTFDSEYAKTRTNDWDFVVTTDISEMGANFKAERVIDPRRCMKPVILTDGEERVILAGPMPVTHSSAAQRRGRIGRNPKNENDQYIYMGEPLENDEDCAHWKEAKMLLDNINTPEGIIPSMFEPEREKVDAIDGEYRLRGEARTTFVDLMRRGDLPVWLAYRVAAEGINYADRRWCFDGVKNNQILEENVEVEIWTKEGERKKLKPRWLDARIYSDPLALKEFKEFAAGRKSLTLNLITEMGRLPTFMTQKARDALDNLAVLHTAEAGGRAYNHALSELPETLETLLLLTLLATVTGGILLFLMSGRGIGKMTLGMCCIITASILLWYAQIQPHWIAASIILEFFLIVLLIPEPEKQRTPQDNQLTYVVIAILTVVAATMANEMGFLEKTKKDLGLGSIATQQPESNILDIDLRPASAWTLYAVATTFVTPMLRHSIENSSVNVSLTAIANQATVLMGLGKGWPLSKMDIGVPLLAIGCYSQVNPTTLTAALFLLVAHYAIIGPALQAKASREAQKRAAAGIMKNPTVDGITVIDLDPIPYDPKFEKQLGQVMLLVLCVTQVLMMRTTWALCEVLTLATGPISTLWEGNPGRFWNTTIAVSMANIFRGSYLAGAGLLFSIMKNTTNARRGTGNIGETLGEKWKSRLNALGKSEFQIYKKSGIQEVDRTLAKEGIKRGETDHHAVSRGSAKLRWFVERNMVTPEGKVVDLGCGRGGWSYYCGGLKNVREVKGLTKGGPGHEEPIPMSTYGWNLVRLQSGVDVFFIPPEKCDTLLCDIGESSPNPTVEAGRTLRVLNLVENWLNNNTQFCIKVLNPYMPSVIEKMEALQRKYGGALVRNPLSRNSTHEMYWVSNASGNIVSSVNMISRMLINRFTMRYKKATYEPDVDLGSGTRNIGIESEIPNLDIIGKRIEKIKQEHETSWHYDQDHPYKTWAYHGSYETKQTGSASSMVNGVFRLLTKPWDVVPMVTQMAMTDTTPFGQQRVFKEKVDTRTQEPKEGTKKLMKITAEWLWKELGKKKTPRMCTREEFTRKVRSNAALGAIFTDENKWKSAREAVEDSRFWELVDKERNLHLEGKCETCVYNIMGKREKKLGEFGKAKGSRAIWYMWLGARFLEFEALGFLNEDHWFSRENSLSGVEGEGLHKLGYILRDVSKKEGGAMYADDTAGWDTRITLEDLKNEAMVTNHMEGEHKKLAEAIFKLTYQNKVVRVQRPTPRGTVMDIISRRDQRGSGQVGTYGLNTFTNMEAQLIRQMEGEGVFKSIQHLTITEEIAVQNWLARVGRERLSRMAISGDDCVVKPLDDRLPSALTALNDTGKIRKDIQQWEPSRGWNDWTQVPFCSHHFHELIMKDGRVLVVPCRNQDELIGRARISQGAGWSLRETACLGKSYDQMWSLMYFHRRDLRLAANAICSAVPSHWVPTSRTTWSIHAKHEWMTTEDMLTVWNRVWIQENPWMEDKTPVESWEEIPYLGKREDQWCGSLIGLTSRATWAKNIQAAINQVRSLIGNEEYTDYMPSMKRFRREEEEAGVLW

SMILES strings stand for the structures.

These results are taken from doi:10.1101/2024.06.05.597555v1 (biorxiv, 2024).

Broadly, the EC50 is the concentration needed to bring the measured effect to its halfway point. Read a low EC50 as greater potency. `NC(=O)c1cccc(NC(=O)[C@@H](NC(=O)c2ccc(Oc3ccccc3)cc2)C2CCCCC2)c1` had a half-maximal effective concentration (EC50) in assay [1] of 3.9 µM.
Broadly, the % inhibition is the share of the control response that was lost under treatment. Read a low % inhibition as a weak effect. For the compound `NCC1(CC(=O)N[C@H](C(=O)Nc2cccc(C(N)=O)c2)c2ccc(OCc3ccccc3)cc2)CCCCC1`, the “% inhibition at 50 μM” value in assay [2] was 26%. The same compound yielded a half-maximal effective concentration (EC50) in assay [1] of 21 µM.
The IC50 is the concentration that gives 50% inhibition. Lower therefore signals greater potency. Turning to `NC(=O)c1cccc(NC(=O)[C@@H](NC(=O)C2(c3ccccc3)CCCC2)c2ccc(OCc3ccccc3)cc2)c1`, in assay [2], the concentration for half-maximal inhibition (IC50) was 6.6 µM. In addition, the EC50 in assay [1] amounted to 6 µM.
The matching figures for `NC(=O)c1cccc(NC(=O)[C@@H](NC(=O)CC2(CNC(=O)c3ccccc3)CCCCC2)c2ccc(OCc3ccccc3)cc2)c1`: 12 µM and 3.7 µM.
On the same counts, the results for `CC(C(=O)N[C@H](C(=O)Nc1cccc(C(N)=O)c1)c1ccc(OCc2ccccc2)cc1)c1cccc(C(=O)c2ccccc2)c1` (stereo partly shown) are 17 µM and 2.4 µM.
In assay [2], `NC(=O)c1cccc(NC(=O)[C@@H](NC(=O)CC2(CNC(=O)C3CCC3)CCCCC2)c2ccc(OCc3ccccc3)cc2)c1` yielded an IC50 of 9.2 µM. The compound also gave a half-maximal effective concentration (EC50) in assay [1] of 3.8 µM.
With `CC(=O)Nc1ccc(Oc2ccc(C(=O)N[C@H](C(=O)Nc3cccc(C(N)=O)c3)c3ccc(OCc4ccccc4)cc3)cc2)cc1`, the concentration for half-maximal inhibition (IC50) in assay [2] turned out to be 16 µM. Besides, the 50% effective concentration (EC50) in assay [1] was determined as 3.1 µM.
